The supplement of paper PMC9931576
Human monoclonal antibodies against the spike receptor-binding domain (heavy:light variable regions). IC50 against pseudoviruses bearing the spike of naturally observed variants; lower = stronger; >10 µg/ml means not reached at the top dose. No active / inactive call. The stated detection limit is 0.0005 µg/ml; values near or below 0.001 µg/ml lie at the floor of the assay.

B1: BD56-625 (protein)
chain 1: QVQLAQSGAEVKQPGSSVKVSCKASGGTFSSYGVTWVRQAPGQGLEWMGRIFPFIGIANYAEKFQGRVTITADKSTSTAYMELSSLRSEDTAVYYCARDSPLCTSTNCFDYWGQGTLVTVSS
chain 2: QSVLTQPPSVSGAPGQRVTISCTGSNSNIGAGYDVHWYQQLPGTAPKLLIYNNNNRPSGVADRFSGSKSGTSASLAIAGLRAEDEADYFCQSYDSSLSDGVFGTGTKVTVL
B2: BD56-642 (protein)
chain 1: QVTLRESGPALVKPTQTLTLTCTFSGLSLSNTEMYVSWIRQPPGKGLEWLALIDWDDDKYYSTSLRTRLTISRDTSRNQVVLTMTDMDPMDTATYYCARSPSLHDTSGYYFQYYFDLWGQGALVTVSS
chain 2: EIVLTQSPGTLSLSPGERATLSCRASLSVSSSYLAWYQQKPGQAPRLLIYGASSRATGVPDRFSGSGSGTDFTLTVNRLDPEDFAVYYCQQYGGSPLTFGQGTKVEV
B3: BD56-629 (protein)
chain 1: EVQLVESGGGLVQPGGSLRLSCAASGFTFSDYDMHWVRQGTGEGLEWVSTIGTSGDTYYPGSVKGRFTISRENAKNSLYLQMNSLRAGDTAVYYCARVNYDSSGYYWYFDLWGRGTLVTVSS
chain 2: DIQMTQSPSSLSASVGDRVTITCRASQSIGRYLNWYQQKPGKAPKVLIYSASSLQSGVPSRFSGSGSGTDFTLTISTLQPEDFATYYCQQSYSSPPWTFAQGTKVEIK
B4: DH1196 (protein)
chain 1: QVQLVQSGSELKKPGASVKVSCKASGYTFTSYAMNWVRQAPGQGLEWMGWINTNTGNPTYAQGFTGRFVFSLDTSVSTAYLQISSLKAEDTAVYYCAGGYDFWSGYPNPTDYWGQGTLVTVSS
chain 2: QSVLTQPPSASGTPGQRVTISCSGSSSNIGSNYVYWYQQLPGTAPKLLIYRNNQRPSGVPDRFSGSKSGTSASLAISGLRSEDEADYYCAAWDDSLSGHVFGGGTKLTVL
B5: BD56-622 (protein)
chain 1: QITLKESGPTLVKATQTLTLTCTFSGFSLSTSGEGVGWIRQPPGKALEWLGFIYWNDDKPYSPSLKSRLTITKDTSKNQVVLTMTNMDPVDTATYYCAHTYYYDSRGYALDYWGQGTPVTVSS
chain 2: DIQMTQSPSSVSASVGDRVTITCRASQSIINWLAWYQQKPGKAPKLLIYAASSLQSGVPSRFSGSGSGTDFTLTISSLQPEDFATYYCQQANNFPITFGGGTKVEIK
B6: BD56-644 (protein)
chain 1: EVHLVESGGGLVQPGGSLRLSCAASGFSFDDYAMHWVRQVPGKGLEWVSGISWNRNTIGYADSVKGRFTISRDNAKNSLYLQMNSLRPEDTALYYCAKDILVASNGDLFDYWGQGTLVTVSS
chain 2: SYVLTQPPSVSVAPGKTARITCGGDNIGSKSVHWYQQKPGQAPLLVIYDDSDRPSGIPERFSGSNSGNTATLTISRVEAGDEADYSCQVRDSSINHPYVFGTGTKVTVL
B7: BD56-624 (protein)
chain 1: QVQLVQSGVEVKKPGSSVKVSCKVSGGTFSSYTITWVRQAPGQGLEWMGRIIPFLGIPNYAQTFQDRVTITADKSTNTAYMELNNLRSEDTAVYYCARDVTDAMAGTLGNNWFDPWGQGTLVTVSS
chain 2: QSVLSQPPSVSGAPGQRVTISCTGSNSNIGAGYDVHWYQQLPGTAPKLLISVNSNRPSGVPDRFSGSKSATSASLAITGLQAEDEADYYCQSYDSSLTQEVFGGGTKLTVL
B8: BD56-646 (protein)
chain 1: EVQLVQFGAEVKKPGESLKISCKGSGYNFTSYWIGWVRQMPGKGLEWMGIIYPGDSDTRYSPSFQGQVTISADKSFSTAYLQWSSLQASDTAMYYCARLVSFDWFADYWGQGTLVTVSS
chain 2: DIVMTQTPLSLSVTPGQPASISCKSSQSLLHSDGTTSLFWYLQKPGQPPQLLIYGVSNRFSGVPDRFSGSGSGTDFTLKISRVEAEDVGVYYCMQNLLLLTWTFGQGTKVEIK
B9: BD56-626 (protein)
chain 1: QVQLVQSGAEVKKPGASVKVSCQASGYTFTTYTMHWVRQAPGQRLEWMGWINAGNGNTKYSQMFQGRVTITRDTSASTAYMELSRLRSEDTAVYYCATEVTQLAHLIDVWGQGTTVTVSS
chain 2: QSALTQPRSVSGSPGQSVTISCTGTSSDVGDYDYVSWYQQHPGKAPKLMIYDVTKRPSGVPDRFSGSKSGNTASLTISGLQAEDEADFYCCSYAGSYTYVFGTGTKVTVL
B10: BD56-649 (protein)
chain 1: QVQLVQSGAEVKKPGASVKVSCKASGYTFPSYTMHWVRQAPGQRLEWMGWINAGNGDTQYSQKFQGRVTITRDTSASIAYMELTRLRSEDTAVYYCATEVTQLAHLIDVWGQGTTVTVSS
chain 2: QSALTQPRSVSGSPGQSVTISCTGTSSDVGDYNYVSWYQEHPGKAPKLMIYDVSKRPSGVPDRFSGSKSGNTASLTISGLQAEDEADYYCCSYAGSYTYVFGTGTKVTVL
B11: BD56-640 (protein)
chain 1: EVQLVESGGGLVQPGGSLRLSCAASGFMFTTYTMHWVRQAPGKRLEYVSAISSNGGTYYANSVKGRFTIARDNSKNRLYLQMGSLRADDMAVYYCARGEGTATIDYFDYWGQGTLVTVSS
chain 2: SYVLTQPPSVSVAPGQTARITCGGDDIGSKNVHWYQQKPGQAPVLVVFDDSDRPSGIPERFSGSNSGNTATLTIRRVEAGDEADYYCQVWDSSSDPHWVFGGGTKLTVL
B12: BD56-650 (protein)
chain 1: QVQLMQSGAEVKKPGSSVKVSCKASGGTFRSYAISWVRQAPGQGLEWMGVIIPVFGTAHYAQKFQGRVAITADKSTSTAYMELSSLRSADTAVYYCAREGLGIVEEDPSTWEGVLDYWGQGTLVTVSS
chain 2: EIVLTQSPGTLSLSPGERATLSCRASQSVSSSSLAWYQQKPGQAPRLVIYGAASRATGIPDRFSGSGSGTDFTLTISRLEPEDFAVYYCQQYGSSPRLTFGGGTKVEIK

Legend:
Experiment in all cases: pseudovirus neutralization IC50; higher = weaker neutralization
[1] = target: SARS-CoV-2 Omicron BA.1 spike pseudovirus
Description: (§1)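 Single-round VSV luciferase pseudovirus mixed with antibody dilutions for 1 h and put on Huh-7 cells for about a day; IC50 from the dose curve.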

[2] = target: SARS-CoV-2 Omicron BA.2 spike pseudovirus
Description: as §1

[3] = target: SARS-CoV-2 Omicron BA.2.75 spike pseudovirus
Description: as §1

[4] = target: SARS-CoV-2 Omicron BA.5 spike pseudovirus
Description: as §1

[5] = target: SARS-CoV-2 Omicron BQ.1.1 spike pseudovirus
Description: as §1

[6] = target: SARS-CoV-2 Omicron XBB spike pseudovirus
Description: as §1

[7] = target: SARS-CoV-2 early D614G spike pseudovirus
Description: as §1

| Binder | pseudovirus neutralization IC50 [1] [µg/mL] | pseudovirus neutralization IC50 [2] [µg/mL] | pseudovirus neutralization IC50 [3] [µg/mL] | pseudovirus neutralization IC50 [4] [µg/mL] | pseudovirus neutralization IC50 [5] [µg/mL] | pseudovirus neutralization IC50 [6] [µg/mL] | pseudovirus neutralization IC50 [7] [µg/mL] |
| --- | --- | --- | --- | --- | --- | --- | --- |
| B1 | 0.0281 | 0.0234 | 0.0315 | 2.22 | > 10 | 1.7 | 0.234 |
| B2 | 2.76 | 1.99 | 2.16 | 2.34 | 3.23 | 3.21 | 3.47 |
| B3 | > 10 | > 10 | > 10 | > 10 | > 10 | > 10 | > 10 |
| B4 | > 10 | > 10 | > 10 | > 10 | > 10 | > 10 | 3.04 |
| B5 | 1.11 | 1.15 | 1.04 | 1.15 | 2.08 | 4.6 | 1.99 |
| B6 | 3.91 | 3.46 | 3.97 | > 10 | > 10 | > 10 | > 10 |
| B7 | 0.0262 | 0.0187 | 0.022 | 5.47 | > 10 | 2.47 | 0.042 |
| B8 | 0.301 | 0.229 | 0.261 | 0.212 | > 10 | > 10 | 0.00656 |
| B9 | 8.41 | 8.12 | > 10 | > 10 | > 10 | > 10 | 2.04 |
| B10 | 0.47 | 0.339 | 0.313 | 7.99 | > 10 | > 10 | 0.205 |
| B11 | 1.31 | 1.27 | 1.25 | 3.95 | > 10 | > 10 | 1.43 |
| B12 | > 10 | > 10 | > 10 | > 10 | > 10 | > 10 | > 10 |
